Source: PubChem BioAssay AID624099 (ICCB-Longwood, 2012)

Aim: 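Human genes that papillomavirus E2 requires to repress the HPV18 LCR promoter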 (primary screen)
Cell system: human C33A cervical carcinoma cells (HPV-negative) stably expressing BPV1 E2 and an HPV18 LCR luciferase reporter
Reagent: siRNA pool against human genes, 40 nM
Timing: 72 h
Measured: 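Per-well luciferase luminescence, z-scored on each plate against the plate mean and SD with control wells left out, then averaged across three replicate plates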
Reading the numbers: mean z-score and z-score: higher = stronger reporter signal, weaker E2 silencing
Call rule: 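Mean z ≥ 2 together with z ≥ 2 in two or more of the three replicates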
Here is an unselected part of about 21,000 reagents tested. 497 of them (2.4%) count as active. 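Higher z means weaker E2 silencing; only reporter increases were scored, and knock-downs that hurt cell survival may mask genuine repressor factors.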 Entries without a mark were called inactive.

no.	gene	mean z-score	z-score, replicate A	z-score, replicate B	z-score, replicate C
1	TDO2 (tryptophan 2,3-dioxygenase)	0.05	0.14	0.01	0.01
2	RAP1GAP2 (RAP1 GTPase activating protein 2)	0.87	0.93	0.88	0.81
3	GCSIR (GPR55 cis regulatory suppressor of immune response RNA)	3.48 (active)	3.26	3.55	3.64
4	C1orf87 (chromosome 1 open reading frame 87)	0.36	0.43	0.35	0.3
5	TBC1D21 (TBC1 domain family member 21)	0.2	0.41	0.21	-0.02
6	CCR9 (C-C motif chemokine receptor 9)	0.47	0.41	0.29	0.71
7	IRS1 (insulin receptor substrate 1)	0.15	0.32	-0.39	0.53
8	SIK3 (SIK family kinase 3)	-0.1	0.04	-0.43	0.09
9	USP7 (ubiquitin specific peptidase 7)	-0.49	-0.37	-0.69	-0.42
10	FANCI (FA complementation group I)	0.17	0.24	0.15	0.13

Continued (2 carried over from the part before).
no.	gene	mean z-score	z-score, replicate A	z-score, replicate B	z-score, replicate C
9	USP7 (ubiquitin specific peptidase 7)	-0.49	-0.37	-0.69	-0.42
10	FANCI (FA complementation group I)	0.17	0.24	0.15	0.13
11	LSM10 (LSM10, U7 small nuclear RNA associated)	2.14 (active)	2.46	1.89	2.07
12	USP1 (ubiquitin specific peptidase 1)	0.16	0.32	0.12	0.04
13	MAGI1-IT1 (MAGI1 intronic transcript 1)	0.6	1.04	0.48	0.29
14	ZNF613 (zinc finger protein 613)	0.76	1.33	1.19	-0.25
15	CTSK (cathepsin K)	-0.48	-0.49	-0.62	-0.32
16	SCAF1 (SR-related CTD associated factor 1)	0.9	0.87	0.45	1.38
17	NSA2 (NSA2 ribosome biogenesis factor)	-0.95	-1.01	-0.82	-1.02
18	TSEN34 (tRNA splicing endonuclease subunit 34)	1.41	1.25	2.45	0.53
19	SYT15 (synaptotagmin 15)	1.76	2.02	1.21	2.07
20	GAGE12I (G antigen 12I)	-1.18	-0.99	-0.99	-1.55
21	ZBTB4 (zinc finger and BTB domain containing 4)	0.66	0.56	1.57	-0.14
22	EBF1 (EBF transcription factor 1)	0.91	0.69	0.84	1.2
23	PPP2R1B (protein phosphatase 2 scaffold subunit Abeta)	-0.99	-1.01	-0.8	-1.16
